Compound potency records, mixed from different reports. Data source: NIAID ChemDB in PubChem.

All rows: toxicity to cultured cells; cell line: MT-4; endpoint: CC50

Conditions beyond the fields shown may differ between rows. CCn is the concentration with n% toxicity to the cells.

structure,value
Nc1ncnc2c1ncn2C[C@H](CF)OCP(=O)(O)O,>300 µM
O=C1CSC(c2c(F)cccc2F)N1c1cccc([N+](=O)[O-])c1,102 µM
NC(=O)CC[C@H](NC(=O)COc1ccc(NC(=O)[C@@H](N)Cc2ccc(O)cc2)cc1)C(=O)N[C@@H](Cc1c[nH]c2ccccc12)C(=O)N[C@@H](CC(=O)O)C(=O)N[C@@H](Cc1ccccc1)C(=O)NCC(=O)O,>1000 µg/mL
CC1(C)OS(=O)(=O)C=C1NCc1ccccc1,>125 µg/mL
[O-][n+]1nc2c(-c3ccc(F)cc3)cnn2c2ccccc21,>200 µM
Nc1nc2c(ncn2C[C@H](CF)OCP(=O)(O)O)c(=O)[nH]1,>300 µM
CCCn1c(Cl)c([N+](=O)[O-])c(=O)[nH]c1=O,≥62.4 µg/mL
CC(C)(C)NC(=O)[C@@H]1C[C@@H]2CCCC[C@@H]2CN1C[C@@H](O)CNC(=O)[C@@H]1N[C@@H]([C@H](NC(=O)Cc2ccccc2)C(=O)NCc2ccccc2)SC1(C)C,>100 µM
CC(=O)NC1C(O)OC(CO)C(O)C1OC1OC(C(=O)[O-])C(OC2OC(CO)C(O)C(OC3OC(C(=O)[O-])C(O)C(O)C3O)C2NC(C)=O)C(O)C1O.[Na+].[Na+],>250 µg/mL
O=C(c1c(O)cc(O)cc1O)c1c(-c2ccc(O)cc2)oc2cc(O)c3c(c12)O[C@H](c1ccc(O)cc1)[C@@H](O)C3,>100 µg/mL
COc1cccc2c1nc(-c1ccccc1F)n2Cc1ccc(Cl)s1,5 µg/mL
C[C@@H](Cn1cnc2c(=O)[nH]c(N)nc21)OCP(=O)(O)O,123 µM
CC(C)(C)NC(=O)[C@@H]1C[C@@H]2CCCC[C@@H]2CN1C[C@H](O)CNC(=O)[C@@H]1N[C@@H]([C@H](NC(=O)Cc2ccccc2)C(=O)NCc2ccccc2)SC1(C)C,>100 µM
O=C1CSC(c2c(Cl)cccc2Cl)N1c1ccccc1,>429 µM
COc1cccc2c1nc(-c1ccccc1F)n2Cc1ccccc1C#N,>25 µg/mL
O=C1CSC(c2c(F)cccc2F)N1c1cccc(Cl)c1,44.2 µM
Nc1nc(N)c2ncn(C[C@H](CF)OCP(=O)(O)O)c2n1,>300 µM
CCOC(=O)c1cnn2c1n[n+]([O-])c1cc(Cl)ccc12,>200 µM
CC1(C)C2CC[C@]3(C)C(C(=O)C=C4C5C[C@@](C)(C(=O)O)CC[C@]5(C)CC[C@]43C)[C@@]2(C)CC[C@@H]1O[C@@H]1O[C@H](C(=O)[O-])[C@@H](O[C@@H]2O[C@H](C(=O)[O-])[C@@H](OS(=O)(=O)[O-])[C@H](OS(=O)(=O)[O-])[C@H]2OS(=O)(=O)[O-])[C@H](OS(=O)(=O)[O-])[C@H]1OS([O-])(O)O,280 µg/mL
Nc1nc(N)c2ncn(C[C@@H](CF)OCP(=O)(O)O)c2n1,>300 µM
Nc1ccn([C@H]2CC[C@@H](CO)O2)c(=O)n1,38 µg/mL
CC1=C(N)C(C)(C)N(Cc2ccccc2)S1(=O)=O,>125 µg/mL
COC(=O)c1cnn2c1nnc1ccccc12,>200 µM
Cn1c(Sc2ccccc2)c([N+](=O)[O-])c(=O)n(C)c1=O,≥81.2 µg/mL
COC(=O)c1cnn2c1n[n+]([O-])c1ccccc12,98 µM
CC1(C)C2CCC3C(C(=O)C=C4C5C[C@@](C)(C(=O)O)CC[C@]5(C)CC[C@]43C)[C@@]2(C)CC[C@@H]1O[C@@H]1O[C@H](C(=O)O)[C@@H](O[C@@H]2O[C@H](C(=O)O)[C@@H](O)[C@H](O)[C@H]2O)[C@H](O)[C@H]1O,132 µg/mL
CCOC(=O)c1cnn2c1nnc1cc([N+](=O)[O-])ccc12,12.7 µM
NCCC[C@@H](N)CC(=O)NCN,>11500 µM
CCCn1c(Sc2ccccc2)c(N)c(=O)[nH]c1=O,≥44.3 µg/mL
Nc1nc2c(ncn2[C@H]2CO[C@@H](CCP(=O)(O)O)O2)c(=O)[nH]1,90 µg/mL
CCNC(=O)[C@@H](NC(=O)Cc1ccccc1)[C@@H]1N[C@@H](C(=O)NC[C@H](O)CN2C[C@H]3CCCC[C@H]3C[C@H]2C(=O)NC(C)(C)C)C(C)(C)S1,>100 µM
CC1(Cc2ccccc2)OS(=O)(=O)C=C1N,>125 µg/mL
Nc1ncnc2c1ncn2[C@@H]1CO[C@H](CO)[C@@H](O)C1,12.5 µg/mL
CCCn1c(Sc2cc[n+]([O-])cc2)c([N+](=O)[O-])c(=O)[nH]c1=O,0.313 µg/mL
Nc1nc(N)c2ncn(C[C@H](CO)OCP(=O)(O)O)c2n1,>300 µM
COc1cccc2c1nc(-c1ccccc1F)n2CC=C(Cl)Cl,45.3 µg/mL
CCCCCCCNC(=O)[C@@H](NC(=O)Cc1ccccc1)[C@@H]1N[C@@H](C(=O)NCC(O)CN2C[C@H]3CCCC[C@H]3C[C@H]2C(=O)NC(C)(C)C)C(C)(C)S1,>100 µM
CCOC(=O)c1cnn2c1nnc1cc(Cl)ccc12,192 µM
Cc1cn([C@@H]2CO[C@H](CO)[C@@H](O)C2)c(=O)[nH]c1=O,>100 µg/mL
COC(=O)c1ccc(C2(C)OS(=O)(=O)C=C2N)cc1,>125 µg/mL
N#Cc1cnn2c1n[n+]([O-])c1cc(Cl)ccc12,13 µM
Nc1ccn([C@@H]2CO[C@H](CO)[C@@H](O)C2)c(=O)n1,1.1 µg/mL
Cn1c(Sc2cc[n+]([O-])cc2)c([N+](=O)[O-])c(=O)n(C)c1=O,0.275 µg/mL
O=[N+]([O-])c1ccc2c(c1)[n+]([O-])nc1c([N+](=O)[O-])cnn12,1.4 µM